What was measured:
Assay type in all cases: cell-based
[1] = tested on: HIV-1 strain HTLVIIIB; assay: Inhibition of HIV-1 HTLVIIIB replication in PBMC (p24 antigen EIA)
Procedure: The cells were then infected with virus at a multiplicity of infection (MOI) of 0.1 during a one-hour adsorption period at 37° C. in a humidified 5% CO2 atmosphere. Subsequently, cells were cultured in 96-well microplates (100 μL/well; 2×10^6 cells/mL, triplicate wells) in the presence of various inhibitor concentrations. […] Ag. […] The applied p24 EIA was the unmodified kinetic assay commercially available from Coulter Corporation/Immunotech, Inc. (Westbrook, Me.).
To test the therapeutic activity of the compounds of the invention, p24 assays were utilized as previously described. […] 1 during a one-hour adsorption period at 37° C. in a humidified 5% CO2 atmosphere. Subsequently, cells were cultured in 96-well microliter plates ([…]; 2×10^6 cells/mL, triplicate wells) in the presence of various inhibitor concentrations. Aliquots of culture supernatants were removed from the wells on the 7th day after infection for p24 antigen p24 enzyme immunoassays (EIA).
The applied p24 EIA was the unmodified kinetic assay commercially available from Coulter Corporation/Immunotech, Inc. (Westbrooke, Me.), which utilizes a murine monoclonal antibody to HIV core protein coated onto microwell strips to which the antigen present in the test culture supernatant samples binds. Percent inhibition of viral replication was calculated by comparing the p24 values from the test substance treated infected cells with p24 values from untreated infected cells (i.e., virus controls).

[2] = tested on: HIV-1 strain RT-MDR (V106A); assay: Inhibition of replication of NNI-resistant HIV-1 strain RT-MDR in H9 cells
Procedure: (§1) The ability of Compounds 4 (HI-516), 11 (HI-566), and 12 (HI-565) to inhibit the replication of NNI-resistant HIV-1 strains, A17 (Y181C) and RT-MDR (V106A), was analyzed. The anti-HIV activity of the compounds was measured by determining their ability to inhibit the replication of HIV-1 strains A17 in PBMC from healthy volunteer donors and RT-MDR in H9 cells.
(§2) Compounds 4, 11, and 12 were compared with nevirapine or delavirdine, two known non-nucleoside reverse transcriptase inhibitors of HIV-1 RT.

[3] = tested on: HIV-1 strain A17 (Y181C); assay: Inhibition of replication of NNI-resistant HIV-1 strain A17 in PBMC
Procedure: as §1, §2

Row | SMILES | SI (selectivity index = IC50 MTA / IC50 p24) [1] | fold more potent than delavirdine [2] [fold] | fold more potent than nevirapine [2] [fold] | fold more potent than delavirdine [3] [fold] | fold more potent than nevirapine [3] [fold]
1 | S=C(NCCOc1ccccc1)Nc1ccc(Br)cn1 [Compound 10, N-[2-(Phenoxy)ethyl]-N′-[2-(5-bromopyridyl)] thiourea] | 18,400 | – | – | – | –
2 | S=C(NCCOc1ccccc1)Nc1ccc(Cl)cn1 [Compound 9, N-[2-(Phenoxy)ethyl]-N′-[2-(5-chloropyridyl)]thiourea] | >25,000 | – | – | – | –
3 | FC(CNC(=S)Nc1ccc(Br)cn1)c1ccccc1 (stereo not drawn) [Compound 12, β-Fluoro[2-phenethyl]-N′-[2-(5-bromopyridyl)]thiourea] | – | 2 | 7 | 500 | 200
4 | FC(CNC(=S)Nc1ccc(Cl)cn1)c1ccccc1 (stereo not drawn) [Compound 11, β-Fluoro[2-phenethyl]-N′-[2-(5-chloropyridyl)] thiourea] | – | 4 | 14 | 500 | 200
5 | S=C(NCCOc1ccccc1)Nc1ccccn1 [Compound 8, N-[2-(Phenoxy)ethyl]-N′-[2-(pyridyl)]thiourea] | 1,100 | – | – | – | –
